# B1: Mycobacterium tuberculosis MmpS5 (natural protein)
# chain: MIGTLKRAWIPLLILVVVAIAGFTVQRIRTFFGSEGILVTPKVFADDPEPFDPKVVEYEVSGSGSYVNINYLDLDAKPQRIDGAALPWSLTLKTTAPSAAPNILAQGDGTSITCRITVDGEVKDERTATGVDALTYCFVKSA
# B2: Mycobacterium tuberculosis MmpL5 ∆494-688 with a C-terminal GFP-FLAG tag (natural protein)
# chain: MIVQRTAAPTGSVPPDRHAARPFIPRMIRTFAVPIILGWLVTIAVLNVTVPQLETVGQIQAVSMSPDAAPSMISMKHIGKVFEEGDSDSAAMIVLEGQRPLGDAAHAFYDQMIGRLQADTTHVQSLQDFWGDPLTATGAQSSDGKAAYVQVKLAGNQGESLANESVEAVKTIVERLAPPPGVKVYVTGSAALVADQQQAGDRSLQVIEAVTFTVIIVMLLLVYRSIITSAIMLTMVVLGLLATRGGVAFLGFHRIIGLSTFATNLLVVLAIAAATDYAIFLIGRYQEARGLGQDRESAYYTMFGGTAHVVLGSGLTIAGATFCLSFTRLPYFQTLGVPLAIGMVIVVAAALTLGPAIIAVTSRFGKLLEPKRMARVRGWRKVGAAIVRWPGPILVGAVALALVGLLTLPGYRTNYNDRNYLPADLPANEGYAAAERHFSQARMNPEVLMVESDHDMRNSADFLVINKIAKAIFAVEGISRVQAITRPDGKPIEFYLPPEVFDNPDFQRGLEQFLSPDGHAVRFIISHEGDPMSQAGIARIAKIKTAAKEAIKGTPLEGSAIYLGGTAAMFKDLSDGNTYDLMIAGISALCLIFIIMLITTRSVVAAAVIVGTVVLSLGASFGLSVLIWQHILGIELHWLVLAMAVIILLAVGADYNLLLVARLKEEIHAGINTGIIRAMGGSGSVVTAAGLVFAFTMMSFAVSELTVMAQVGTTIGMGLLFDTLIVRSFMTPSIAALLGKWFWWPQVVRQRPIPQPWPSPASARTFALV
# B3: Mycobacterium smegmatis acyl carrier protein AcpM (MSMEG_4326) (natural protein)
# chain: MAATQEEIIAGLAEIIEEVTGIEPSEVTPEKSFVDDLDIDSLSMVEIAVQTEDKYGVKIPDEDLAGLRTVGDVVAYIQKLEEENPEAAAALREKFAADQ
# modifications: 4′-phosphopantetheine on Ser41
# Experiments:
# [1] = target: B2; assay: cryo-EM structure
# cryo-EM structure = target: the molecule itself; assay: cryo-EM structure
binder,measurement,setting,value
B1,stoichiometry N,[1],1 MmpS5 per MmpL5 (3:3)
B2,stoichiometry N,cryo-EM structure,3 protomers
B3,binding result,[1],binds

# From paper PMC12501195, “Structural and functional analysis of the Mycobacterium tuberculosis MmpS5L5 efflux pump presages increased bedaquiline resistance” (Proceedings of the National Academy of Sciences of the …, 2025)
